Results reported in PubChem BioAssay AID1159564 (GlaxoSmithKline (GSK), 2015).

System: L. donovani-infected THP-1 macrophages, intracellular amastigote imaging
Assay: intracellular L. donovani amastigote inhibition, imaging, THP-1 host macrophages, host toxicity (AID 1159564)

Structure (SMILES): CC(C)(C)c1ccc(NC2(C(N)=O)CCN(Cc3ccccc3)CC2)cc1
- IC50: 16 µM
- IC50 (measured here: THP-1 host cell toxicity): 25 µM
- IC50 (measured here: amastigotes per macrophage): 10 µM
